{"source": "patent US9114107B2", "about": "“Compositions for inhibiting virus entry and promoting virolysis, and methods thereof” (priority 2010, dated 2015)", "key": {"[1]": {"system": "recombinant virus pseudotyped with the envelope for HIV-1BaL", "format": "cell-based", "conditions": "read-out: IC50, inhibition of infection of HOS.T4.R5 cells by HIV-1BaL pseudovirus"}, "[2]": {"system": "HIV-1BaL pseudotype virus", "format": "biochemical"}, "[3]": {"system": "purified virus like particle (VLP)", "experiment": "DLS measurement of VLP stability", "design": "species or system HIV-1", "conditions": "30 min incubation; drop of 90-100 nm peak, rise of 10-14 nm peak", "procedure": "To validate the results the stability of the VLP was also tested using DLS. […] As controls, intact purified VLP as well as YU2 GP120 trimer was used. The inhibitor and VLP were incubated for 30 minutes prior to diameter testing using DLS (FIG. 7).\nFIG. 7 illustrates the validation of the viral instability caused by the inhibitor using DLS. The intact virus was approximately 90-100 nm showing consistency."}}, "data": [{"molecule": "CCC(C)[C@H](NC(=O)[C@@H](N)CCCNC(=N)N)C(=O)N[C@@H](CC(N)=O)C(=O)N[C@@H](CC(N)=O)C(=O)N[C@H](C(=O)N1CC(n2cc([C]34[CH]5[CH]6[CH]7[CH]3[Fe]6754389%10[CH]4[CH]3[CH]8[CH]9[CH]4%10)nn2)C[C@H]1C(=O)N[C@@H](Cc1c[nH]c2ccccc12)C(=O)N[C@@H](CO)C(=O)N[C@@H](CCC(=O)O)C(=O)N[C@@H](C)C(=O)N[C@@H](CCSC)C(=O)N[C@@H](CCSC)C(=O)NCCC(=O)N[C@@H](CCC(N)=O)C(=O)NCCC(=O)N[C@@H](CS)C(N)=O)C(C)CC", "note": "(stereo partly drawn) [KR13, RINNIXWSEAMMβAQβAC-NH2]", "values": [{"measurement": "IC50", "setting": "[1]", "value": "23 ± 6", "unit": "nM"}, {"measurement": "p24 release / virolysis of HIV-1BaL pseudovirus", "setting": "[2]", "value": "could cause virolysis, though with lower potency than AuNP-KR13"}, {"measurement": "viral disruption by DLS", "setting": "[3]", "value": "showed viral disruption"}]}]}
